Holding throughout (experiment): ELISA
Conditions in all cases: both partners purified
Background: In an ELISA, binding on a coated surface is turned into a signal by an enzyme label.

The target of assay [1] is T1, foot-and-mouth disease virus type A particle (FMDV serotype A, A24/Cruzeiro/BRA/55 (A …, UniProt P03309, strain)).
T1 construct: copies: + + +

The target in assay [2] is T2, foot-and-mouth disease virus type Asia 1 particle (Foot-and-mouth disease virus serotype …, UniProt A2I7M2, strain).
T2 construct: copies: + + +

In assay [3] the target is T3, foot-and-mouth disease virus type C particle (FMDV serotype C; assayed …, UniProt P15072, strain).
T3 construct: copies: + + +

B1: single-domain antibody M170 (VHH)
VHH: QVQLQESGGGLVQAGGSLRLSCAASGRTFSSYAMGWFRQAPGSEREFVARISWSGGSTYYADSVKGRFTISRDNAKNTVYLQMNSLKPEDTAVYYCTAGFALPPSDYWGQGTQVTVSS
notes: also called NAb M170
Regarding B1, the binding result in assay [1] is “no binding”.

B2: single-domain antibody M8 (VHH)
VHH: QVQLQESGGGLVQPGGSLRLSCVASGTVFSINDISINHLGWYRQAPGKERELVAAITADGTSAYEDSVKGRFIISRDDAKKMVYLQMNSLKPEDTAVYYCNGLRASNAGWEPRFGTWGQGTQVTVSS
notes: also called mAb M8; NAb M8
With B2, the binding result in assay [1], in assay [2] and in assay [3] was “binds” each time.

(Values after publication PMC9095805, “Structural and molecular basis for foot-and-mouth disease virus neutralization by two potent protective antibodies” (Protein & Cell, 2021).)
